Compound potency records, mixed from different reports. Data source: NIAID ChemDB in PubChem.

Common to all: enzyme or target tests; agent: HIV-1; protein: Integrase; read-out: IC50

Rows are shuffled and stem from different studies. ICn is the concentration giving n% inhibition. Blank or dashed fields: not listed here. Two numbers with a dash give a range or band.

CN1CC(O)C(C)(C)Cn2c(c3c(c(O)c2=O)C(=O)N(Cc2ccc(F)c(Cl)c2)CC3)C1=O ; method: strand transfer ; value: 0.021 µM
C=C(CC[C@@H](C)[C@@]1(OC2O[C@H](CO)[C@@H](O)[C@H](O)[C@@H]2O)CC=C2C3=C(C[C@@H](O)[C@@]21C)[C@@]1(C)CC[C@H](O)C(C)(C)[C@@H]1CC3)C(C)C ; method: absorbance ; value: 50 µM
COc1ccc(CN=[N+]=[N-])cc1C(=O)CC(=O)C(=O)O ; method: 3′ processing ; value: >100 µM
Cc1cn([C@@H]2CO[C@H](COP(=O)(O)O[C@H]3C[C@H](n4ccc(N)nc4=O)O[C@@H]3COP(=O)(O)O)[C@H]2O)c(=O)[nH]c1=O ; method: 3′ processing ; value: 405 µM
C[C@@H]1CCO[C@H]2Cn3cc(C(=O)NCc4ccc(F)cc4F)c(=O)c(O)c3CN12 ; changes: G140S/Q148H ; value: 0.18 µM
O=c1oc2ccccc2c(O)c1Cc1c(O)c2ccccc2oc1=O ; method: strand transfer ; value: >100 µM
N#C/C(=C\c1ccc(O)c(O)c1)C(=O)NCN1CCN(C(=O)/C(C#N)=C/c2ccc(O)c(O)c2)CC1 ; method: 3′ processing / substrate cleavage ; value: 10–100 µM
O=C(/C=C(\O)c1ccc(Cl)cc1)C(=O)Nc1ccccc1 ; value: 1.9 µM
Cc1ccnc(C(=O)CC(=O)c2cc(Cc3ccccc3)cc(CN3CCCS3(=O)=O)c2)c1 ; value: 0.03 µM
O=C1Sc2cc3ccccc3cc2C(=O)N2CSC[C@@H]12 ; method: 3′ processing ; value: 65 µM
CN(C)C1C(=O)C(C(=O)NCNc2cccc(C(=O)O)c2C(=O)O)=C(O)C2(O)C(=O)C3=C(O)c4c(O)cccc4[C@](C)(O)[C@@H]3C[C@H]12 ; strain or isolate: RF ; method: 3′ processing ; value: 1.7 µM
CC(C)Oc1ccc(Cc2ccccc2)cc1C(=O)CC(=O)C(=O)O ; value: 0.05 µM
N#C/C(=C\c1ccc(O)c(O)c1)C(=O)NCCCCNC(=O)/C(C#N)=C/c1ccc(O)c(O)c1 ; method: strand transfer ; value: 5–10 µM
O=Cc1cc(S(=O)(=O)c2ccc(O)c(C=O)c2)ccc1O ; method: strand transfer ; value: 1.3 µM
CS(=O)(=O)CS(=O)(=O)Nc1cc(O)c(O)c2c1C(=O)N(Cc1ccccc1)C2=O ; method: strand transfer ; value: 0.15 µM
CNS(=O)(=O)OC1C2OC([C@@H](C)C(C)C)C[C@@H](C)[C@@H]2[C@@]2(C)CC[C@H]3[C@@H]([C@@H](O)[C@@H](O)[C@H]4[C@@H](O)[C@H](OS(=O)(=O)O)CC[C@@]43C)[C@H]12 ; value: 50 µg/mL
O=[N+]([O-])c1cc(S(=O)(=O)c2ccc(F)c([N+](=O)[O-])c2)ccc1F ; method: disintegration ; value: 63.5 µM
N=C(N)c1ccc2cc(C3C[C@H]3c3ccc4c(c3)C(CC3CCCCC3)=NCC4)ccc2c1 ; method: strand transfer ; value: 21 µM
CS(=O)(=O)CS(=O)(=O)Nc1ccccc1CN1Cc2ccc(O)c(O)c2C1=O ; method: strand transfer ; value: 32.6 µM
O=C(/C=C/c1ccc(O)c(O)c1)O[C@@H]1CC(O)(C(=O)O)C[C@@H](OC(=O)/C=C/c2ccc(O)c(O)c2)C1O ; method: strand transfer ; value: 0.34 µg/mL
Cc1nc2c(-c3ccc(Cl)cc3)cccc2c(-c2ccc3c(c2)OCCO3)c1C(OC(C)(C)C)C(=O)O ; method: strand transfer / fluorescence ; value: 0.08 µM
CC(=O)Oc1ccc(/C=C/C(=O)O[C@@H](C(=O)O)[C@@H](OC(=O)/C=C/c2ccc(OC(C)=O)c(OC(C)=O)c2)C(=O)O)cc1OC(C)=O ; strain or isolate: IIIB ; method: disintegration ; value: 3.3 µM
O=C(C1=C(O)C(=O)N(c2nncs2)C1c1ccc(F)cc1)c1cccs1 ; value: >100 µM
[N-]=[N+]=Nc1cn([C@H]2C[C@H](N=[N+]=[N-])[C@@H](COP(=O)(O)O)O2)c(=O)[nH]c1=O ; method: 3′ processing ; value: 70 µM
O=C(O)C(=O)CC(=O)c1cccn1Cc1ccccc1 ; strain or isolate: IIIB ; method: strand transfer ; value: 0.2 µM
CC1CCC(C2=NCCc3ccc([C@@H]4CC4c4ccc5cc(C(=N)N)ccc5c4)cc32)CC1 ; method: strand transfer ; value: 19 µM
NC(N)=NC(N)=Nc1cccc(S(=O)(=O)c2cccc(N=C(N)N=C(N)N)c2)c1 ; method: 3′ processing ; value: >100 µM
N=C(N)c1ccc2cc(C#Cc3ccc(C(O)CO)cc3)ccc2c1 ; method: strand transfer ; value: 7.4 µM
Nc1ccn([C@H]2C[C@H](OP(=O)(O)OC[C@H]3OC[C@@H](n4ccc(=O)[nH]c4=O)[C@@H]3O)[C@@H](COP(=O)(O)O)O2)c(=O)n1 ; method: strand transfer ; value: 43 µM
CC(C)=C[C@H]1C[C@H](C)[C@]2(CC[C@]3(C)C[C@H]4[C@H](C(=O)C[C@@]4(C)O)C(C=O)=C[C@H]32)O1 ; method: absorbance ; value: 48 µM
Nc1ccn([C@H]2C[C@H](O)[C@@H](COP(=O)(O)O[C@H]3C[C@H](n4cnc5c(N)ncnc54)O[C@@H]3COP(=O)(O)O)O2)c(=O)n1 ; method: 3′ processing ; value: 6 µM
N#C/C(=C\c1ccc(O)c(O)c1)C(=O)NCCCc1ccccc1 ; method: 3′ processing / substrate cleavage ; value: 10–100 µM
CN(C)C1C(=O)C(C(=O)NCNCCC(=O)O)=C(O)C2(O)C(=O)C3=C(O)c4c(O)cccc4C(C)(O)C3CC12 ; strain or isolate: RF ; method: 3′ processing ; value: 5.1 µM
O=C1c2c(ccc(O)c2O)CN1Cc1ccc2[nH]ccc2c1 ; method: strand transfer ; value: 28.7 µM
Cc1ccnc(C(=O)CC(=O)c2cccc(Cc3ccccc3)c2)c1 ; value: 0.05 µM
CC(C)=CCC[C@H](C)[C@@]1(O)CC[C@]2(C)C[C@H]3[C@H](C(=O)C[C@@]3(C)O)C(C=O)=C[C@H]21 ; method: absorbance ; value: 21.5 µM
Nc1ncnc2c1ncn2[C@@H]1CO[C@H](COP(=O)(O)O)[C@H]1OP(=O)(O)OC[C@H]1O[C@@H](n2cnc3c(N)ncnc32)C[C@@H]1O ; method: strand transfer ; value: >1000 µM
O=[N+]([O-])c1ccc(N=Nc2c(S(=O)(=O)O)cc3cc(S(=O)(=O)O)cc(O)c3c2O)cc1 ; value: 97 µM
O=C1c2ccc(O)c(O)c2C(=O)N1Cc1c(F)cccc1F ; method: strand transfer ; value: 2.1 µM
COc1cc(/C=C/c2ccc(OC)c(OC)c2)oc(=O)c1 ; method: absorbance ; value: >100 µM
Cc1ccccc1CN(Cc1ccccc1C)c1ccc2nc(N)[nH]c2c1 ; method: strand transfer ; value: 24 µM
COC(=O)C(=O)OC1(C(=O)O)C[C@@H](OC(=O)/C=C/c2ccc(O)c(O)c2)C(O)[C@H](OC(=O)/C=C/c2ccc(O)c(O)c2)C1 ; method: 3′ processing ; value: 0.27 µg/mL
O=C1c2ccc(O)c(O)c2C(=O)N1Cc1cccc(Cc2cc(F)c(F)c(F)c2)c1 ; method: strand transfer ; value: 0.58 µM
O=S(=O)(c1ccc(F)cc1)c1ccc(F)cc1 ; method: strand transfer ; value: >100 µM
O=[N+]([O-])c1cc(S(=O)(=O)c2ccc(F)c([N+](=O)[O-])c2)ccc1F ; method: strand transfer ; value: 40 µM
CCCCCCc1cc2c(O)c(C(c3ccccc3)c3c(O)c4cc(CCCCCC)c(O)cc4oc3=O)c(=O)oc2cc1O ; method: strand transfer ; value: 12 µM
Cc1ccc(S(=O)(=O)c2c(C)cc(C)cc2C)cc1 ; method: strand transfer ; value: >100 µM
CN(C)[C@@H]1C(=O)C(C(=O)NCNc2nc3n[nH]nc3c(=O)[nH]2)=C(O)[C@@]2(O)C(=O)C3=C(O)c4c(O)cccc4[C@@](C)(O)[C@H]3C[C@@H]12 ; strain or isolate: RF ; method: strand transfer ; value: 0.3 µM
CC(CCN(CCC(C)c1ccccc1)c1ccc2nc(N)[nH]c2c1)c1ccccc1 ; method: strand transfer ; value: 9.2 µM
Cc1ccc(CN2Cc3ccc(O)c(O)c3C2=O)cc1F ; method: strand transfer ; value: 1.48 µM
CC(C)=CCC[C@H](C)[C@H]1CC[C@]2(C)C[C@H]3[C@@H](C(=O)C[C@@]3(C)O)C(C=O)=C[C@@H]12 ; method: absorbance ; value: 33 µM
N#CC(C#N)=Cc1cc(O)c(O)c(O)c1 ; method: strand transfer ; value: 5–10 µM
CC(=O)N1CCc2ccc([C@@H]3CC3c3ccc4cc(C(=N)N)ccc4c3)cc2C1C(C)C ; method: strand transfer ; value: 61 µM
O=C(O)C(=O)CC(=O)c1ccccc1Cc1ccccc1 ; strain or isolate: IIIB ; method: strand transfer ; value: 7 µM
Nc1ccn([C@@H]2O[C@H](COP(=O)(O)O[C@H]3[C@H](n4cnc5c(N)ncnc54)CO[C@@H]3COP(=O)(O)O)[C@@H](O)[C@H]2O)c(=O)n1 ; method: strand transfer ; value: >1000 µM
CC(=O)/C(N=Nc1ccc(S(=O)(=O)c2ccc(N=N/C(C(C)=O)=C(/C)O)cc2)cc1)=C(\C)O ; method: 3′ processing ; value: >100 µM
C=C(CC[C@@H](C)[C@H]1CC=C2C3=C([C@@H](O)[C@H](OC(C)=O)[C@@]21C)[C@@]1(C)C[C@@H](O)[C@H](O)[C@@](C)(CO)[C@@H]1CC3)C(C)C ; method: absorbance ; value: >100 µM
Nc1nc2ccc(NCc3ccccc3)cc2[nH]1 ; method: strand transfer ; value: 88 µM
O=C(O)C(=O)CC(=O)c1ccc(Cc2ccccc2)s1 ; strain or isolate: IIIB ; method: strand transfer ; value: 0.6 µM
CN(C)C1C(=O)C(C(=O)NCNCCCO)=C(O)C2(O)C(=O)C3=C(O)c4c(O)cccc4C(C)(O)C3CC12 ; strain or isolate: RF ; method: strand transfer ; value: 3.6 µM
CCCCCCCNC1=C(O)c2ccccc2C(=O)C1=O ; method: strand transfer ; value: >100 µM

Again, the opening 6 rows:

| SMILES | strain or isolate | method | changes | value |
|---|---|---|---|---|
| CN1CC(O)C(C)(C)Cn2c(c3c(c(O)c2=O)C(=O)N(Cc2ccc(F)c(Cl)c2)CC3)C1=O | - | strand transfer | - | 0.021 µM |
| C=C(CC[C@@H](C)[C@@]1(OC2O[C@H](CO)[C@@H](O)[C@H](O)[C@@H]2O)CC=C2C3=C(C[C@@H](O)[C@@]21C)[C@@]1(C)CC[C@H](O)C(C)(C)[C@@H]1CC3)C(C)C | - | absorbance | - | 50 µM |
| COc1ccc(CN=[N+]=[N-])cc1C(=O)CC(=O)C(=O)O | - | 3′ processing | - | >100 µM |
| Cc1cn([C@@H]2CO[C@H](COP(=O)(O)O[C@H]3C[C@H](n4ccc(N)nc4=O)O[C@@H]3COP(=O)(O)O)[C@H]2O)c(=O)[nH]c1=O | - | 3′ processing | - | 405 µM |
| C[C@@H]1CCO[C@H]2Cn3cc(C(=O)NCc4ccc(F)cc4F)c(=O)c(O)c3CN12 | - | - | G140S/Q148H | 0.18 µM |
| O=c1oc2ccccc2c(O)c1Cc1c(O)c2ccccc2oc1=O | - | strand transfer | - | >100 µM |